PubChem BioAssay AID504761, Drosophila RNAi Screening Center – 2011
Assay: 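Insect host genes that dengue virus relies on to spread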 (primary screen). Cells: D.Mel-2 cells from Drosophila. Reagents: long dsRNA against Drosophila genes. Conditions: infection with dengue virus type 2; dose and infection time not stated. Measurement: 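Cells stained for dengue envelope protein and imaged; percent of infected cells per well on duplicate plates, ranked by infection, with stained nuclei counted for cell number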. Scale: infection score: higher = more virus-infected cells; cell count: higher = more cells in the well. Hit rule: 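Low infection ranks in the two replicates (chance level up to 0.065) followed by a retest with a 1.5-fold or larger significant decrease, p below 0.05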. Calls: active = confirmed: knock-down lowers infection; inactive = not picked or not confirmed.
In all, the deposit lists about 22,000 reagents; below is a random part of those that have a named target and a result. Of all reagents, 116 (0.52%) are marked active. 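Calls depend on retest data that are not deposited; infection was ranked per plate without normalising between plates; the unit of the infection score is not given.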 Raw values are not corrected between plates. Entries without a mark were called inactive. Reagents against one gene are numbered here. A plus sign joins genes that one reagent is predicted to hit. Not stated in the record: the amount of reagent, the time to read-out.

gene knocked down,reagent no.,"infection score, replicate 1","infection score, replicate 2","cell count, replicate 1","cell count, replicate 2"
CCHa2 (GeneID 41648),1,3.74,10.5,6419,6811
Lst (GeneID 36853),1,5.54,7.82,6735,5956
Lst (GeneID 36853),2,23.5,3.8,4665,474
Fpps (GeneID 36209),1,26.6,18.6,5734,6234
Vha36-1 (GeneID 44702),1,35.4,21.1,5565,6439
Vha36-1 (GeneID 44702),2,0.45,4.52,6184,6286
CG9368 (GeneID 40135),1,5.92,9.19,6287,6376
CG9368 (GeneID 40135),2,12.1,5.7,6125,6649
CG32388 (GeneID 192611),1,0.62,1.01,6148,5923
CG13044 (GeneID 39795),1,2.1,4.47,5848,6173
CG13044 (GeneID 39795),2,21.8,7.4,5509,5701
CG13116 (GeneID 34288),1,6.13,4.84,6509,6709
CG13116 (GeneID 34288),2,5.51,21,6775,2873
CG13116 (GeneID 34288),3,20,8.24,6797,7042
CG11069 (GeneID 42976),1,3.78,3.96,4688,6945
CG5103 (GeneID 40012),1,8.71,4.71,6644,6540
cal1 (GeneID 42065),1,4.29,12.6,5615,5740
CG14383 (GeneID 41593),1,4.91,2.21,6838,6654
CG12923 (GeneID 36026),1,12.6,4.46,6700,6749
CG7916 (GeneID 34800),1,13.3,9.65,4427,6002
CG31886 (GeneID 326170),1,33,6.27,5667,6009
CG31886 (GeneID 326170),2,8.82,9.51,6948,6507
Mcm7 (GeneID 39014),1,6.71,6.57,4146,4565
Mcm7 (GeneID 39014),2,7.39,3.96,4899,5095
Diedel (GeneID 43474),1,4.28,3.59,5496,3152
Diedel (GeneID 43474),2,4.4,4.92,6846,7141
CG30076 (GeneID 246438),1,1.36,1.04,6375,6413
CG30076 (GeneID 246438),2,7.52,22,412,4929
robl37BC (GeneID 35166),1,5.03,2.7,6280,6627
CG13606 (GeneID 42873),1,0.6 (active),0.89,6948,6754
TbCMF46 (GeneID 34318),1,7.22,2.92,6648,6861
Gs1l (GeneID 33653),1,5.31,12.2,6553,6710
Naa20A (GeneID 32962),1,13.8,10,6391,6663
dgo (GeneID 36139),1,4.73,5.96,6041,6479
dgo (GeneID 36139),2,5.1,7.38,6392,6507
RpL35A (GeneID 40654),1,4.96,5.13,3248,4388
CG6790 (GeneID 41388),1,7.88,5.75,6221,6747
CG10514 (GeneID 43052),1,10.8,0.84,5762,6768
CG10514 (GeneID 43052),2,5.58,4.45,6760,6560
RhoGAP71E (GeneID 39693),1,10.2,11.4,5749,4378
RhoGAP71E (GeneID 39693),2,3.64,7.73,5799,5873
RhoGAP71E (GeneID 39693),3,21.8,16.7,5943,5866
Prosalpha4T1 (GeneID 42457),1,2.43,1.06,6327,6488
Prosalpha4T1 (GeneID 42457),2,19.6,12.8,3990,3991
CG32590 (GeneID 318103),1,9.62,2.27,6528,6380
Vps2 (GeneID 43164),1,3.43,0.71,3843,4083
Vps2 (GeneID 43164),2,13.6,6.98,2982,3423
CG7222 (GeneID 36138),1,1.4,2.17,6054,6530
CG17931 + CG42446,1,8.8,9.09,6264,6097
smo (GeneID 33196),1,0.96,1.35,6160,6369
smo (GeneID 33196),2,6.51,11.4,2195,4247
hng2 (GeneID 41056),1,5,0.83,6060,6766
CG15767 (GeneID 31508),1,1.06,0.7,6515,6976
CG15767 (GeneID 31508),2,2.95,21.4,747,5118
CG6149 (GeneID 39277),1,1.67,2.47,5627,5797
CG11768 (GeneID 41046),1,1.67,9.95,6394,6656
CG11768 (GeneID 41046),2,,17.6,323,3566
CCT3 (GeneID 42029),1,23.3,28.2,2837,2982
Dhc98D (GeneID 43379),1,2,2.68,6047,6557
Dhc98D (GeneID 43379),2,3.37,8.14,6471,6557
Clamp (GeneID 35445),1,20.3,13.7,6491,6344
Clamp (GeneID 35445),2,0.86,5.14,6379,6377
Clamp (GeneID 35445),3,4.25,10.6,6376,5989
trc (GeneID 40165),1,8.54,15.4,6231,5907
trc (GeneID 40165),2,7.58,18.9,5076,3947
CG4045 (GeneID 31176),1,6.79,9.83,471,6440
CG15764 (GeneID 31516),1,8.33,2.26,6485,6450
CG15764 (GeneID 31516),2,2.43,5.91,6534,6836
CG7218 (GeneID 42165),1,24.8,22.1,4499,5817
CG7218 (GeneID 42165),2,1.85,5.37,6860,708
Ugt36E1 (GeneID 35139),1,12.6,4.03,6179,6257
CG12118 (GeneID 31857),1,3.76,2.05,6774,6438
CG3355 (GeneID 33667),1,2.76,3.34,6482,6882
CG13047 (GeneID 39790),1,0.46,4.07,6237,6041
CG13047 (GeneID 39790),2,2.89,4.38,6013,5865
